Data taken from US9937234B2, “Compositions and methods for using and identifying antimicrobial agents” (priority 2013, dated 2018).
“Also recorded” adds a separate entry of the source.

System: B. anthracis spores and vegetative cells
Format: cell-based, Bacillus anthracis

In the case of human CXCL10, the localization in spores is reported as “localized internal to (not outside) the protective exosporium layer of the spores; also recorded: localizes to spore structures within and internal to the exosporium, namely, to the spore coat and spore cortex” and the “localization in vegetative cells” value is reported as “localized primarily to the cell membrane; also recorded: localizes to the cell membrane”.
